Literature values, collected in PMC9264115, “Pd-catalyzed C–C and C–N cross-coupling reactions in 2-aminothieno[3,2-d]pyrimidin-4(3H)-one series for antiplasmodial pharmacomodulation” (RSC Advances, 2022).

Test system: K1 culture-adapted P. falciparum strain
Set-up: method as in PMID 25791675
Details: from CC50 HepG2 and EC50 PfK1; reference values; ratio CC50 / EC50; cited from earlier work

SMILES	SI (selectivity index)
C[C@H]1c2cccc(O)c2C(=O)C2=C(O)[C@]3(O)C(=O)C(C(N)=O)=C(O)[C@@H](N(C)C)[C@@H]3[C@@H](O)[C@@H]21 [Doxycycline, doxycycline]	4
O=C1C(O)=C([C@H]2CC[C@H](c3ccc(Cl)cc3)CC2)C(=O)c2ccccc21 [Atovaquone, atovaquone]	>12 000
Cc1ccc(-c2cc3nc(NC(C)(C)C)[nH]c(=O)c3s2)cc1 [M1 (free base), gamhepathiopine]	128
Cc1ccc(-c2cc3nc(NC(C)(C)C)[nH]c(=O)c3s2)cc1 [Compound M1, gamhepathiopine]	533
